Results on four compounds are retold here after paper PMC8401404 (Molecules, 2021).

For one series, the system named is ctDNA. The experiment in a line: CD titrations. Format: binding, calf. The note with it: pH 7.0, sodium cacodylate buffer.
The test system of a further series is calf thymus DNA (ctDNA). As to the kind of experiment: Fluorimetric titrations with ctDNA. The following applies: I0 starting intensity of compound, I intensity of complex calculated by Scatchard equation; pH 7.0.

Structures can show the parent of a compound that is named as a salt.

Regarding `CC(C)NC(=N)c1ccc2nc(-c3ccc(-c4ccc([N+](=O)[O-])cc4)o3)sc2c1` [Compound 5, 2-[5-(4-Nitrophenyl)furan-2-yl]-6-N-isopropilamidinobenzothiazole hydrochloride], the “binding mode to ctDNA suggested by CD/ICD spectra” value (“binding mode to ctDNA suggested” below) with ctDNA is listed as “inside the ctDNA groove, most probably in the form of a dimer”. Also, in the series with calf thymus DNA (ctDNA), the “fluorescence intensity ratio I/I0 with ctDNA” value is on record as 0.8.

`Cl.O=[N+]([O-])c1ccc(-c2ccc(-c3nc4ccc(C5=NCCN5)cc4s3)o2)cc1` [Compound 6, 6-(4,5-Dihydro-1H-imidazol-2-yl)-2-[5-(4-nitrophenyl)furan-2-yl]benzothiazole hydrochloride]: the “binding mode to ctDNA suggested” value in the series on ctDNA is “intercalative binding”.

For `CC(C)NC(=N)c1ccc2nc(-c3ccc(-c4ccc(Cl)cc4)o3)sc2c1` [Compound 8, 2-[5-(4-Chlorophenyl)furan-2-yl]-6-N-isopropilamidinobenzothiazole hydrochloride], the “binding mode to ctDNA suggested” value with ctDNA is listed as “minor groove binding”. Besides, the “fluorescence intensity ratio I/I0 with ctDNA” value in the series with calf thymus DNA (ctDNA) is on record as 0.2.

With `Cl.Clc1ccc(-c2ccc(-c3nc4ccc(C5=NCCN5)cc4s3)o2)cc1` [Compound 9, 2-[5-(4-Chlorophenyl)furan-2-yl]-6-(4,5-Dihydro-1H-imidazol-2-yl)benzothiazole hydrochloride], the “binding mode to ctDNA suggested” value in the series with ctDNA was “minor groove binding”. Besides, in the series with calf thymus DNA (ctDNA), the “fluorescence intensity ratio I/I0 with ctDNA” value was 0.5.
